Source: publication PMC7918733, “Biological Profiling of Semisynthetic C19-Functionalized Ferruginol and Sugiol Analogues” (Antibiotics, 2021)

How the values were obtained:
[1] = tested on: L. infantum amastigotes; assay: Intracellular amastigote assay (fluorometric test); format: cell-based; settings: SI = CC50/IC50 (J774)
[2] = tested on: L. amazonensis amastigotes; assay: Intracellular amastigote assay (fluorometric test); format: cell-based; settings: SI = CC50/IC50 (J774)
[3] = tested on: P. falciparum 3D7 strain; assay: Antiplasmodial DNA stain-based growth assay; format: cell-based, Plasmodium falciparum; settings: EC50 lower values of cytotoxic activity/EC50 antimalarial activity
Description: (§1) Assays were performed by using previously described DNA stain-based assay and methods, including cytotoxicity assays.

[4] = tested on: P. falciparum K1 strain; assay: Antiplasmodial DNA stain-based growth assay; format: cell-based, Plasmodium falciparum; settings: EC50 lower values of cytotoxic activity/EC50 antimalarial activity
Description: as §1

[5] = tested on: L. infantum promastigotes; assay: Antileishmanial in vitro promastigote assay; settings: SI = CC50/IC50 (J774)
[6] = tested on: L. donovani promastigotes; assay: Antileishmanial in vitro promastigote assay; settings: SI = CC50/IC50 (J774)
[7] = tested on: L. amazonensis promastigotes; assay: Antileishmanial in vitro promastigote assay; settings: SI = CC50/IC50 (J774)
[8] = tested on: L. guyanensis promastigotes; assay: Antileishmanial in vitro promastigote assay; settings: SI = CC50/IC50 (J774)
[9] = tested on: L. infantum promastigotes; set-up: method as in PMID 30840453; settings: C18-congeners, ratio CC50 / IC50; cited from earlier work
[10] = tested on: L. donovani promastigotes; settings: C18-congeners, ratio CC50 / IC50; cited from earlier work
[11] = tested on: L. amazonensis promastigotes; set-up: method as in PMID 30840453; settings: C18-congeners, ratio CC50 / IC50; cited from earlier work
[12] = tested on: L. guyanensis promastigotes; set-up: method as in PMID 30840453; settings: C18-congeners, ratio CC50 / IC50; cited from earlier work

Structure (SMILES)	L. infantum SI [1]	L. amazonensis SI [2]	P. falciparum 3D7 SI [3]	P. falciparum K1 SI [4]	L. infantum SI [5]	L. donovani SI [6]	L. amazonensis SI [7]	L. guyanensis SI [8]	L. infantum SI [9]	L. donovani SI [10]	L. amazonensis SI [11]	L. guyanensis SI [12]
COC(=O)[C@@]1(C)CCC[C@]2(C)c3cc(C(C)=O)c(C(C)C)cc3CC[C@@H]12 [Compound 9]	>8.8	>6.6	1.9	2.0	>10.0	>22.0	>14.0	>10.7				
CC(C)c1cc2c(cc1O)[C@@]1(C)CCC[C@@](C)(CO)[C@@H]1CC2=O [Compound 15b]									1.5	0.7	1.4	0.9
CC(C)c1cc2c(cc1O)[C@@]1(C)CCC[C@@](C)(CO)[C@@H]1CC2 [Compound 14b]									33.4	1.7	3.0	1.9
COC(=O)[C@]1(C)CCC[C@]2(C)c3cc(C(C)=O)c(C(C)C)cc3CC[C@@H]12 [Compound 9b]									51.8	8.8	11.2	9.1
COC(=O)[C@]1(C)CCC[C@]2(C)c3cc(OC(C)=O)c(C(C)C)cc3C(=O)C[C@@H]12 [Compound 11b]									25.4	4.1	27.4	13.6
CCCCCCCCCCCCCCCCOP(=O)([O-])OCC[N+](C)(C)C [Miltefosine, reference compound]	2.3	8.2			40.1	909	2.9	7.5				
COC(=O)[C@@]1(C)CCC[C@]2(C)c3cc(OC(C)=O)c(C(C)C)cc3C(=O)C[C@@H]12 [Compound 11]			3.5									
COC(=O)[C@@]1(C)CCC[C@]2(C)c3cc(OC(C)=O)c(C(C)C)cc3CC[C@@H]12 [Compound 10]				8.1	>8.4	>7.7	>4.1					
COC(=O)[C@]1(C)CCC[C@]2(C)c3cc(OC(C)=O)c(C(C)C)cc3CC[C@@H]12 [Compound 10b]									20.4	3.3	8.2	4.8
COC(=O)[C@]1(C)CCC[C@]2(C)c3cc(O)c(C(C)C)cc3CC[C@@H]12 [Compound 12b]									6.8	3.7	8.7	5.8

Where two headings read alike, the source gives them in different places.
